Measured values reported in paper PMC7429351, “Comparison of ligand binding and conformational stability of human calmodulin with its homolog from the malaria parasite Plasmodium falciparum” (FASEB BioAdvances, 2020).

Molecular target: Melittin (UniProt P01501)
Experiment: ITC

“Human recombinant calmodulin (CaM) (from UniProt P0DP23 1-149) (natural protein)” showed a Kd of under 30 nM, a dH of 11.5 kcal/mol and a stoichiometry N of 1.
